The text below walks through data of patent publication US20210363204A1.

For this test, the target named is human Nav1.7 (sodium channel protein type 9 subunit alpha) (human), Q15858. In words: cell-based or functional assay.

GPAPAPAPAPAPQCQKWMQTCDRERKCCEGFVCTLWCRKKLW (modifications not checked) [NV1G1986] returned a Nav1.7 IC50 (nM), FLIPR Tetra of 56 nM. QCQKWMQTCDRERKCCEGFVCTLWCRKKLW (modifications not checked) [(-GP) N-Ac-NV1G1153] showed a Nav1.7 IC50 (nM), FLIPR Tetra of 30.4 nM.

Molecule ACQCQKWMQTCDAERKCCEGFSCTLWCKKKLW (modifications not checked) [(-GP) N-Ac-NV1G1137] had a Nav1.7 IC50 (nM), FLIPR Tetra of 28.6 nM. Same read-out and setting: to GPACQKWMQTCDRNRKCCEGFVCTLWCRKKLW (modifications not checked) [NV1G1728] belongs 9.4 nM.

In the case of GPQCQKWMQQCDRERKCCEGFVCTLWCRKKLW (modifications not checked) [NV1G1810], the Nav1.7 IC50 (nM), FLIPR Tetra stood at 20.5 nM. GPRCQKWMQTCDAKRKCCEGFSCTLWCRKKLW (modifications not checked) [NV1G1744] gave a Nav1.7 IC50 (nM), FLIPR Tetra of 20.6 nM.

The molecule GPQCQKWMQSCDRERKCCEGFVCTLWCRKKLW (modifications not checked) [NV1G1836] showed a Nav1.7 IC50 (nM), FLIPR Tetra of 10.5 nM.

As for GPQCQKWMQTCDANRKCCEGFVCTLWCRKKLW (modifications not checked) [NV1G1231], the Nav1.7 IC50 (nM), FLIPR Tetra was 32 nM. Turning to GPYCQKWMQTCDAKRKCCEGFVCTLWCRKKLW (modifications not checked) [NV1G1747], the Nav1.7 IC50 (nM), FLIPR Tetra is 13 nM.

The molecule GPQCQKWMQTCDREKKCCEGFVCTLWCRKKLW (modifications not checked) [NV1G1811] showed a Nav1.7 IC50 (nM), FLIPR Tetra of 20.4 nM. The molecule GPQCQKWMQTCTRERKCCEGFVCTLWCRKKLW (modifications not checked) [NV1G1820] yielded a Nav1.7 IC50 (nM), FLIPR Tetra of 20.1 nM. The molecule GPQCQKWMQTCDRTRKCCEGFVCTLWCRKKLW (modifications not checked) [NV1G1818-NH2] came in with a Nav1.7 IC50 (nM), FLIPR Tetra of 20.5 nM. On to GPYCQKWMQTCDRNRKCCEGFVCTLWCRKKLW (modifications not checked) [NV1G1763], for which the Nav1.7 IC50 (nM), FLIPR Tetra is 16 nM. Same read-out and setting: to GPQCQKWMQTCDRNRKCCEGFVCRLWCRKKLW (modifications not checked) [NV1G1511] belongs 13 nM; to GPQCQKWMQTCDRNRKCCEGFVCTLWCRKKLW (modifications not checked) [NV1G1267], 9.8 nM; to GPQCQKWMQTCDRRRKCCEGFVCTLWCKKKLW (modifications not checked) [NV1G1527], 13 nM. Molecule GPQCQKWMQTCDRERKCCRGFVCTLWCRKKLW (modifications not checked) [NV1G1782] had a Nav1.7 IC50 (nM), FLIPR Tetra of 30.3 nM. On the same count and under the same terms, to GPQCQDWMQTCDRERDCCEGFVCTLWCRKKLW (modifications not checked) [NV1G1835] belongs 31.6 nM. GPYCQKWMQTCDAKRKCCEGFSCTLWCRKKLW (modifications not checked) [NV1G1723] yielded a Nav1.7 IC50 (nM), FLIPR Tetra of 37 nM. GPQCQEWMQTCDRERECCEGFVCTLWCRKKLW (modifications not checked) [NV1G1815] came in with a Nav1.7 IC50 (nM), FLIPR Tetra of 64 nM. Turning to GPYCQKWMWTCDSKRKCCEGMVCRLWCKKKLW (modifications not checked) [Protoxin-II variant NV1D791], the hNav1.7 TETRA IC50 came out at 4.8 nM. With GPYCQKWMWTCDSNRKCCEGMVCRLWCKKKLW (modifications not checked) [Protoxin-II variant NV1D1332], the hNav1.7 TETRA IC50 is 6.7 nM.

The molecule GPYCQKWMWTCDSERKCCEGLVCRLWCKKKLW (modifications not checked) [Protoxin-II variant NV1D1336] gave a hNav1.7 TETRA IC50 of 10.5 nM.

B1: NV1G1978 (peptide)
peptide: GPCRTIGPSVCAPAPAPAPAPQCQKWMQTCDRERKCCEGFVCTLWCRKKLW
modifications: not checked
For B1, the Nav1.7 IC50 (nM), FLIPR Tetra was found to be 60.3 nM. Molecule GPCRTIGPSVCAPAPAQCQKWMQTCDRERKCCEGFVCTLWCRKKLW (modifications not checked) [NV1G1979] came in with a Nav1.7 IC50 (nM), FLIPR Tetra of 65.5 nM. On the same count and under the same terms, the figure for GPDGPWRKMAPAPAPAPAPQCQKWMQTCDRERKCCEGFVCTLWCRKKLW (modifications not checked) [NV1G1977] is 53.6 nM. GPACQKWFQTCDAERKCCEGFVCRLWCKKKLW (modifications not checked) [Protoxin-II variant NV1D2921] yielded a hNav1.7 TETRA IC50 of 586 nM. For the molecule GPSCQKWFQTCDSERKCCEGMVCRLWCKKKLW (modifications not checked) [Protoxin-II variant NV1D2814], the hNav1.7 TETRA IC50 is 754 nM. GPSCQKWFQTCDAERKCCEGLVCRLWCKKKLW (modifications not checked) [Protoxin-II variant NV1D2918] showed a hNav1.7 TETRA IC50 of 983 nM. GPSCQKWMQTCDAERKCCEGFVCTLWCKKKLW (modifications not checked) [NV1G1145] came in with a Nav1.7 IC50 (nM), FLIPR Tetra of 58 nM. GPACQKWMQTCDSERKCCEGFVCRLWCKKKLW (modifications not checked) [Protoxin-II variant NV1D2735] returned a hNav1.7 TETRA IC50 of 60 nM.

GPACQKWFQTCDAERKCCEGLVCRLWCKKKLW (modifications not checked) [Protoxin-II variant NV1D2922] had a hNav1.7 TETRA IC50 of 204 nM.

Molecule GPQCQKWFQTCDAERKCCEGLVCRLWCKKKLW (modifications not checked) [Protoxin-II variant NV1D2910] had a hNav1.7 TETRA IC50 of 441 nM. In turn, GPSCQKWFQTCDAERKCCEGFVCRLWCKKKLW (modifications not checked) [Protoxin-II variant NV1D2917] displayed a hNav1.7 TETRA IC50 of 197 nM. Take GPQCQKWFQTCDSERKCCEGLVCRLWCKKKLW (modifications not checked) [Protoxin-II variant NV1D2870]: the hNav1.7 TETRA IC50 was determined as 784 nM. In turn, GPACQKWFQTCDSERKCCEGMVCRLWCKKKLW (modifications not checked) [Protoxin-II variant NV1D2816] had a hNav1.7 TETRA IC50 of 667 nM. Consider GPQCQKWMQTCDAERKCCEGFSCTLWCKKKLW (modifications not checked) [NV1G1137 (synthetic)], for which the Nav1.7 IC50 (nM), FLIPR Tetra was found to be 21.6 nM. On the same count and under the same terms, the figure for GPQCQKWMQTCDARRKCCEGFVCRLWCKKKLW (modifications not checked) [NV1G1519] is 4.03 nM. In the case of GPQCQKWFQTCDAERKCCEGFVCRLWCKKKLW (modifications not checked) [Protoxin-II variant NV1D2909], the hNav1.7 TETRA IC50 is 97.1 nM. GPQCQKWMQTCDRKRKCCEGFVCRLWCKKKLW (modifications not checked) [NV1G1593] had a Nav1.7 IC50 (nM), FLIPR Tetra of 10.8 nM. For the molecule GPRCQKWMQTCDARRKCCEGFSCRLWCKKKLW (modifications not checked) [NV1G1740], the Nav1.7 IC50 (nM), FLIPR Tetra was 8.4 nM. GPSCQKWFQTCDSERKCCEGLVCRLWCKKKLW (modifications not checked) [Protoxin-II variant NV1D2878] gave a hNav1.7 TETRA IC50 of 680 nM. For the molecule GPYCQKWMQTCDANRKCCEGFSCRLWCKKKLW (modifications not checked) [NV1G1750], the Nav1.7 IC50 (nM), FLIPR Tetra is 20.5 nM.

Regarding GPSCQKWFQTCDSERKCCEGFVCRLWCKKKLW (modifications not checked) [Protoxin-II variant NV1D2877], the hNav1.7 TETRA IC50 came to 441 nM. GPACQKWFQTCDSERKCCEGLVCRLWCKKKLW (modifications not checked) [Protoxin-II variant NV1D2882] displayed a hNav1.7 TETRA IC50 of 857 nM.

GPACQKWMQTCDARRKCCEGFSCTLWCKKKLW (modifications not checked) [NV1G1720] registered a Nav1.7 IC50 (nM), FLIPR Tetra of 23 nM. In the case of GPYCQKWMQTCDARRKCCEGFVCTLWCKKKLW (modifications not checked) [NV1G1718], the Nav1.7 IC50 (nM), FLIPR Tetra came to 21 nM. With GPYCQKWMQTCDAERKCCEGFSCRLWCKKKLW (modifications not checked) [NV1G1738], the Nav1.7 IC50 (nM), FLIPR Tetra was 50.7 nM. GPACQKWFQTCDSERKCCEGFVCRLWCKKKLW (modifications not checked) [Protoxin-II variant NV1D2881] displayed a hNav1.7 TETRA IC50 of 488 nM. In turn, GPSCQKWMQTCDAERKCCEGFSCRLWCKKKLW (modifications not checked) [NV1G1147] showed a Nav1.7 IC50 (nM), FLIPR Tetra of 31 nM. On to GPACQKWMQTCDAERKCCEGFVCTLWCKKKLW (modifications not checked) [NV1G1734], for which the Nav1.7 IC50 (nM), FLIPR Tetra came out at 44 nM. Regarding GPQCQKWFQTCDAERKCCEGMVCRLWCKKKLW (modifications not checked) [Protoxin-II variant NV1D2861], the hNav1.7 TETRA IC50 is greater than 1000 nM.

The molecule GPRCQKWFQTCDAERKCCEGFVCRLWCKKKLW (modifications not checked) [Protoxin-II variant NV1D2913] displayed a hNav1.7 TETRA IC50 of 79.7 nM. The molecule GPACQKWFQTCDAERKCCEGMVCRLWCKKKLW (modifications not checked) [Protoxin-II variant NV1D2867] returned a hNav1.7 TETRA IC50 greater than 1000 nM. As for GPAAAAAQCQKWMQTCDRERKCCEGFVCTLWCRKKLW (modifications not checked) [NV1G1990], the Nav1.7 IC50 (nM), FLIPR Tetra was 30.3 nM.
